{"source": "paper PMC10127594", "key": {"[1]": {"biological_target": "T1, Gac (Borrelia burgdorferi sensu stricto B31) (UniProt O51396)", "T1 sequence": "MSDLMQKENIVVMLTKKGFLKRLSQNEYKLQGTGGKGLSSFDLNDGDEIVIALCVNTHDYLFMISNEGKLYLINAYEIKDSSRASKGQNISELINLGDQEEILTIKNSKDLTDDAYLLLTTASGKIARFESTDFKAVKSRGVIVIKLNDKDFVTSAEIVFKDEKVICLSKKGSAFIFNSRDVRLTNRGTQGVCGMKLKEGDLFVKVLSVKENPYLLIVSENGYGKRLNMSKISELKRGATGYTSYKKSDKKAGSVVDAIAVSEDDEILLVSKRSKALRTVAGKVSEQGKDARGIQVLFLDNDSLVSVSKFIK", "experiment": "competition with a labelled probe", "settings": "10x vs labeled lp17 telomere; EMSA: 50 mM Tris-HCl (pH not stated), 25 mM KCl, 10% glycerol, 0.01% Tween 20, 100 nM DTT, 1 mM PMSF; 15 min, room temperature; 10 nM probe, 25 nM Gac; recombinant protein; protein details: C-terminal His (pET101); label: IRDye800 (probe) or unlabeled; probe letters rebuilt from the primers and the genome; part of a longer …"}, "[2]": {"biological_target": "T1, Gac (Borrelia burgdorferi sensu stricto B31)", "experiment": "EMSA", "settings": "10 nM DNA, 25 nM Gac, EMSA: 50 mM Tris-HCl (pH not stated), 25 mM KCl, 10% glycerol, 0.01% Tween 20, 100 nM DTT, 1 mM PMSF, 15 min, room temperature, 10 nM probe, recombinant protein, protein details: C-terminal His (pET101), label: IRDye800 (probe) or unlabeled, probe letters rebuilt from the primers and the genome, part of a longer …"}}, "note": "Construct, isoform or probe ends are uncertain for at least one entry."}
{"sequence": "CCTCCTTTTTATTTATGAATTATTAGTCCAACAATTTTGTTTTTCAATTTTTTATTTGAAAAAATAATTTTTTCAAATTCTTCAATATCTTGAATAAATATTGAAGAATTTGAAAAATATTGTCTTAATTTGATTTTAAAATCGACATAAGCAAAGCCAAATATGC (double strand) [B31 ospC operator/promoter]", "values": [{"measurement": "binding result", "setting": "[1]", "result": "binds"}, {"measurement": "binding result", "setting": "[2]", "result": "binds"}]}
